From doi:10.1101/2021.10.26.465901 (bioRxiv, 2021)

How the values were obtained:
AUC = target: the molecule itself; assay: AUC
SEC = target: the molecule itself; assay: SEC

B1: Mycobacterium tuberculosis UvrD1 (Rv0949), wild type (enzyme)
chain: not shown
**Q.** What does the source list for B1?
**A.** stoichiometry N (AUC): 4; stoichiometry N (SEC): 2
